PubChem BioAssay AID1259414 – Drosophila RNAi Screening Center, 2018
Assay: 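Genome-wide screen for host control of endosymbiont load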 (primary screen). System: Drosophila JW18 cells infected with Wolbachia. Reagent: long dsRNA against Drosophila genes, 0.25 µg dsRNA per well of a 384-well plate. Duration: 5 days. Conditions: cells persistently infected with Wolbachia before knock-down; no added drug. Detection: 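Automated imaging of bacterial rRNA staining divided by host cell count, reported as plate-normalised robust z-score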. Scale: Wolbachia per cell robust z: higher = more Wolbachia per host cell than the plate typical. Active means: 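Active if absolute robust z reaches 1.5 in two or more of three replicates, leaving out multi- or no-target dsRNAs, genes unexpressed in JW18 and A1 wells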.
The deposit covers about 24,000 reagents; this is an unselected part of those with a known target gene and a result. In the full data, about 1,210 (5%) were called active. 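Inactive calls also include excluded dsRNAs with several or no targets, genes unexpressed in JW18, and well A1, regardless of score.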 Reagent sequences are not shown.

gene | DRSC id | Wolbachia per cell robust z, rep 1 | Wolbachia per cell robust z, rep 2 | Wolbachia per cell robust z, rep 3 | call
CG33783 | DRSC37804 | 1.32 | -0.758 | -0.517 | inactive
CG6380 | DRSC02950 | -0.69 | -1.44 | 0.237 | inactive
PGRP-SC2 | DRSC06481 | -1.38 | -0.445 | -1.03 | inactive
PGRP-SC2 | DRSC25449 | 1.29 | 0.315 | 1.16 | inactive
kumpel | DRSC14883 | -4.46 | 0.731 | -0.0103 | inactive
kumpel | DRSC16459 | 0.731 | 0.471 | 0.308 | inactive
kumpel | DRSC16460 | 0.687 | -0.921 | 0.143 | inactive
kumpel | DRSC16461 | 0.735 | -1.79 | 0.709 | inactive
kumpel | DRSC16462 | 0.306 | -0.385 | 0.601 | inactive
kumpel | DRSC16463 | 0.35 | -0.0449 | -0.59 | inactive
kumpel | DRSC25593 | 0.465 | -0.376 | -0.118 | inactive
kumpel | DRSC27664 | -0.451 | -1.37 | 0.503 | inactive
CG13196 | DRSC06321 | 0.178 | -1.67 | 0.286 | inactive
Upf1 | DRSC19667 | -0.359 | -0.524 | -0.245 | inactive
CG14269 | DRSC17912 | 0.752 | -3.66 | -1.35 | inactive
CG9933 | DRSC03276 | 0.164 | 0.254 | 0.42 | inactive
CG9933 | DRSC29443 | -1.98 | -0.171 | -0.85 | inactive
Nap1 | DRSC04626 | 0.999 | 0.186 | 0.807 | inactive
CG13829 | DRSC14679 | 0.562 | 0.79 | 1.11 | inactive
ham | DRSC02070 | -8.58 | 0.872 | 0.328 | inactive
ham | DRSC02512 | 0.926 | -0.179 | 1.52 | inactive
ham | DRSC02513 | -0.5 | 1.03 | -1.14 | inactive
ham | DRSC27582 | 0.243 | -0.483 | -1.14 | inactive
Sema2b | DRSC05609 | 0.169 | 0.339 | 0.369 | inactive
Sema2b | DRSC06867 | 0.0655 | -0.26 | 0.814 | inactive
Sema2b | DRSC24672 | 0.407 | -0.329 | -0.744 | inactive
CG43428 | DRSC06205 | -0.0411 | -1.24 | 0.294 | inactive
CG43428 | DRSC25601 | 0.312 | -0.679 | 0.573 | inactive
